Only a part is listed here, and it is no random draw. The source made the active and inactive calls. No stated cut-off is given here; in the data, active means inhibition above about 10% (passing the limit was not always enough); inconclusive means no clear call, values can overlap the other calls.

Amino acid sequences for entries named in this document (tags omitted).
UniProt P9WIQ1, whole entry: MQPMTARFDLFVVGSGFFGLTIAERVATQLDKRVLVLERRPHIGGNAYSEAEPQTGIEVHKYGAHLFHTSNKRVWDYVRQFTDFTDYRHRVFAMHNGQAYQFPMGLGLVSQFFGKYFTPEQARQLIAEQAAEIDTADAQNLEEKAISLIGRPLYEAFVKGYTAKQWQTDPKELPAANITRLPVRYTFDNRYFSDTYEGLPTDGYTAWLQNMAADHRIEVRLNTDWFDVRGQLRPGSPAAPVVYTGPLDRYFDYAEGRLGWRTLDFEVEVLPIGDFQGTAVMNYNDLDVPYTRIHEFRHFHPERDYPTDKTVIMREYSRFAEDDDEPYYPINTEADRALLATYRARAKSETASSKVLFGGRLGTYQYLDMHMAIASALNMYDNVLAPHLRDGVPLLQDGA

The experiment has as its target UDP-galactopyranose mutase (Mycobacterium tuberculosis (strain ATCC 25618 / H37Rv)) (UniProt P9WIQ1). Description: blockers of Mtb UDP-galactopyranose mutase – biochemical, fluorescence polarization, single point, primary screen (AID 504406). The note with it: purified UGM, fluorescence polarization probe displacement; at 10 µM; active compounds read high.
Turning to `COc1ccc(NP(C)(=O)Oc2ccccc2OC)cc1` (configuration not stated), the inhibition was inactive: 1.4%.

On to `CN(C)CCOC(=O)C(O)(c1ccccc1)C1CCCCC1` (configuration not stated), for which the inhibition is inactive: 0.108%.

Regarding `COc1ccc(OP(C)(=O)Nc2cccc(Br)c2)cc1` (configuration not stated), the inhibition was inactive: 0.692%.

Regarding `O=[N+]([O-])c1cc([N+](=O)[O-])c(NCC2CCS(=O)(=O)C2)c([N+](=O)[O-])c1` (configuration not stated), the inhibition was inactive: 1.69%.

`O=[N+]([O-])c1ccc(OP2(=O)COCCO2)cc1` (configuration not stated): the inhibition was inactive: -5.05%.

Regarding `CCOP(C)(=S)SCC(=O)NC(C)(CC)C(=O)O` (configuration not stated), the inhibition was inactive: 0.346%.

With `CP(=O)(Nc1ccc(SC(F)(F)F)cc1)Oc1ccc(F)cc1` (configuration not stated), the inhibition was inactive: 0.31%.

On to `Cc1ccccc1NP(C)(=O)Nc1ccccc1C`, for which the inhibition is inactive: 0.384%.

For the compound `CP(=O)(Nc1ccc2c(c1)OCCO2)Oc1ccccc1` (configuration not stated), the inhibition is inactive: -0.473%.

For `CC(C)c1ccc(OP(C)(=O)Nc2ccc(SC(F)(F)F)cc2)cc1` (configuration not stated), the inhibition was inactive: 1.11%.

Turning to `CP(=O)(Nc1ccccc1F)Oc1ccccc1` (configuration not stated), the inhibition was inactive: 0.127%.

For `O=C(OCCN1CCN(CCOCc2ccccc2)CC1)C(O)(c1ccccc1)c1ccccc1`, the inhibition is inactive: 1.36%.

With `O=C(OC1CN2CCC1CC2)c1ccc([N+](=O)[O-])cc1` (configuration not stated), the inhibition was inactive: 3.22%.

With `COc1ccc(OP(C)(=O)Nc2ccc(SC(F)(F)F)cc2)cc1` (configuration not stated), the inhibition is inactive: 0.899%.

For `CCOC(=O)c1ccc(NP(C)(=O)Oc2ccc(F)cc2)cc1` (configuration not stated), the inhibition is inactive: -0.419%.

For `O=[N+]([O-])c1cc([N+](=O)[O-])c(OC2CCCCC2O)c([N+](=O)[O-])c1` (configuration not stated), the inhibition is inactive: -0.119%.

`CCCCCOc1ccc(NP(C)(=O)Oc2ccc(Cl)cc2Cl)cc1` (configuration not stated): the inhibition was inactive: -1.19%.

As for `CP(=O)(Nc1ccccc1)Oc1ccc(F)cc1` (configuration not stated), the inhibition is inactive: -0.17%.

With `CCN(CC)CCCOC(=O)C(O)(c1ccccc1)C1CCCCC1` (configuration not stated), the inhibition was inactive: 0.95%.

For `COc1ccc(OP(C)(=O)Nc2ccccc2Br)cc1` (configuration not stated), the inhibition was inactive: -0.892%.

As to `COc1ccccc1OP(C)(=O)Nc1ccc(C)c(C)c1` (configuration not stated), the inhibition is inactive: 0.356%.

Consider `Cc1cc(C)cc(OP(C)(=O)Nc2cccc(C(F)(F)F)c2)c1` (configuration not stated), for which the inhibition was inactive: 0.584%.

As for `CP(=O)(Nc1ccc(Cl)cc1Cl)Oc1ccccc1` (configuration not stated), the inhibition is inactive: -1.18%.

As for `CP(=O)(OCCOc1ccccc1)OCCOc1ccccc1`, the inhibition is inactive: -4.33%.

For `Cc1nc2ccc3ccccc3c2o1.O=[N+]([O-])c1cc([N+](=O)[O-])c(O)c([N+](=O)[O-])c1`, the inhibition is inactive: 1.81%.

As for `CN(C)CCOC(=O)C(O)(c1ccccc1)C1CCCC1` (configuration not stated), the inhibition is inactive: -6.18%.

In the case of `COc1ccc(OP(C)(=O)Nc2ccccn2)cc1` (configuration not stated), the inhibition is inactive: 0.957%.

As for `COc1ccccc1OP(C)(=O)Nc1ccc(Br)cc1` (configuration not stated), the inhibition was inactive: -1.11%.

Take `CCc1ccc(OP(C)(=O)O)cc1`: the inhibition is inactive: -1.3%.

Consider `COc1ccccc1OP(C)(=O)Nc1ccc(C)cc1C` (configuration not stated), for which the inhibition is inactive: 0.0885%.

For the compound `CP(=O)(Nc1ccccn1)Oc1ccccc1` (configuration not stated), the inhibition is inactive: 0.925%.

Consider `Cc1c(NP(C)(=O)Oc2ccc(C(C)C)cc2)c(=O)n(-c2ccccc2)n1C` (configuration not stated), for which the inhibition was inactive: -0.178%.

As for `O=[N+]([O-])c1cc([N+](=O)[O-])c(Nc2ccccn2)c([N+](=O)[O-])c1`, the inhibition was inactive: -0.114%.

Take `CCc1ccc(OP(C)(=O)Nc2cccnc2)cc1` (configuration not stated): the inhibition is inactive: -2.91%.

Turning to `CP(=O)(Oc1ccccc1)N1CCOC1=O` (configuration not stated), the inhibition is inactive: -4.73%.

Consider `O=C(OCCCN1CCCC1)C(O)(c1ccccc1)C1CCCCC1` (configuration not stated), for which the inhibition is inactive: -4.38%.

As for `COc1ccccc1OP(C)(=O)Nc1c(C)n(C)n(-c2ccccc2)c1=O` (configuration not stated), the inhibition is inactive: -0.249%.

On to `CCN(CC)CC(O)COC(=O)C(O)(c1ccccc1)C1CCCCC1` (configuration not stated), for which the inhibition was inactive: 3.83%.

Regarding `CN(C)C(=O)c1c([N+](=O)[O-])cc([N+](=O)[O-])cc1[N+](=O)[O-]`, the inhibition is inactive: 0.223%.

On to `CP(=O)(Nc1ccc(Cl)cc1)Oc1ccc(F)cc1` (configuration not stated), for which the inhibition is inactive: 0.793%.

`COc1ccccc1OP(C)(=O)Nc1ccccc1Br` (configuration not stated): the inhibition is inactive: 0.664%.

As to `CC(C)(C)c1ccc(OP(C)(=O)O)cc1`, the inhibition is inactive: 2.06%.

As to `CP(=O)(OC12CC3CC(CC(C3)C1)C2)OC12CC3CC(CC(C3)C1)C2`, the inhibition was inactive: 4.88%.

As for `CCOC(=O)c1ccc(NP(C)(=O)Oc2ccc(Cl)cc2)cc1` (configuration not stated), the inhibition is inactive: 1.7%.

For the compound `Nc1ccc2c(ccc3cccnc32)n1.O=[N+]([O-])c1cc([N+](=O)[O-])c(O)c([N+](=O)[O-])c1`, the inhibition was inactive: 4.37%.

For `COc1ccccc1OP(C)(=O)Nc1ccccc1` (configuration not stated), the inhibition was inactive: 1.12%.

For the compound `CP(=O)(Nc1ccccc1Br)Oc1ccccc1` (configuration not stated), the inhibition is inactive: 0.279%.

As to `CP(=S)(Nn1cnnc1)Oc1ccccc1` (configuration not stated), the inhibition is inactive: -0.216%.

Regarding `Cc1cc(C)cc(OP(C)(=O)Nc2ccc(SC(F)(F)F)cc2)c1` (configuration not stated), the inhibition was inactive: 1.81%.

Turning to `CP(=O)(NC(=O)Nc1ccccc1)Oc1ccccc1` (configuration not stated), the inhibition was inactive: -1.01%.

Turning to `CCc1ccc(OP(C)(=O)N2CCN(c3ccc([N+](=O)[O-])cc3)CC2)cc1` (configuration not stated), the inhibition was inactive: 0.379%.

For `CP(=O)(Oc1ccccc1)OC(c1ccccc1)C(F)(F)F` (configuration not stated), the inhibition is inactive: -2.1%.

Consider `CP(=O)(Nc1ccc(SC(F)(F)F)cc1)Oc1ccc(Cl)cc1` (configuration not stated), for which the inhibition was inactive: -3.11%.

On to `Cc1cccc(C)c1OP(C)(=O)Nc1ccc(SC(F)(F)F)cc1` (configuration not stated), for which the inhibition was inactive: 0.494%.

In the case of `CP(=O)(Nc1ccccn1)Oc1ccc(Cl)cc1` (configuration not stated), the inhibition is inactive: 3.16%.

With `CCOP(C)(=S)SCC(=O)NC(C)C(=O)O` (configuration not stated), the inhibition was inactive: -2.23%.

On to `O=[N+]([O-])c1cc([N+](=O)[O-])c(O)c([N+](=O)[O-])c1.c1ccc(Oc2ccncc2)cc1`, for which the inhibition is inactive: -4.14%.

On to `CCOC(=O)c1ccc(NP(C)(=O)Oc2ccc(OC)cc2)cc1` (configuration not stated), for which the inhibition was inactive: 1.17%.

As to `CCN(CC)CCCOC(=O)C(O)(c1ccccc1)c1ccccc1`, the inhibition is inactive: -1.17%.

Turning to `CC(C)(C)c1ccc(OP(C)(=O)Nc2ccc(SC(F)(F)F)cc2)cc1` (configuration not stated), the inhibition was inactive: 1.17%.

Take `O=[N+]([O-])c1ccc2c(c1)C=Nc1ccccc1O2`: the inhibition is inactive: 1.24%.

Consider `O=[N+]([O-])c1cc([N+](=O)[O-])c(Nc2cccnc2)c([N+](=O)[O-])c1`, for which the inhibition was inactive: 0.109%.

Values taken from PubChem BioAssay AID504406 (Broad Institute, 2011).
